Anti-infective test results gathered from many reports (values: NIAID ChemDB through PubChem).

Common to all: enzyme or target tests; species: HIV-1; protein: Reverse transcriptase; endpoint: IC50

Blank or dashed fields: not listed here. ICn: concentration for n% inhibition. a–b is a range or a potency band. Rows are shuffled and stem from different studies.

structure,mutations,strain or isolate,read by,value
CCc1ccc(-n2c(SCC(=O)Nc3ccc(C(=O)O)cc3C)nnc2C(F)F)c2ccccc12,RT-Y188L,-,nucleotide incorporation / radiometric,>0.1 µM
COC(=O)C1CCN(CCOc2ccc(NC(=O)CSc3nnnn3-c3ccc(C(C)(C)C)cc3Cl)c(Cl)c2)CC1,RT-K103 Y181C,-,PicoGreen / fluorescence,<1 µM
CCN1c2ncc(CCOc3ccc(C(=O)O)c4c3CCCC4)cc2C(=O)N(C)c2ccc(Cl)nc21,-,WT,nucleotide incorporation / radiometric,<0.1 µM
Cn1cc(NC(=O)c2ccc(NC(=O)CSc3nnnn3-c3ccc(C(C)(C)C)cc3Cl)c(Cl)c2)cc1C(=O)O,RT-K103 Y181C,-,PicoGreen / fluorescence,<1 µM
COc1cc2c(cc1OC)CN(c1nn3c(C)nnc3c3ccccc13)CC2,-,KER2008,RT activity / fluorescence,0.42 µM
CCN1c2ncc(CCOc3ccc(C(=O)Nc4ccccc4C(=O)O)cc3C)cc2C(=O)N(C)c2cccnc21,RT-K103N Y181C,IIIB,nucleotide incorporation / radiometric,>0.1 µM
COc1ccc(Cl)c(-n2nnnc2SCC(=O)Nc2ccc(C#CC(C)(C)C(=O)O)cc2Cl)c1,-,WT,PicoGreen / fluorescence,<1 µM
COc1ccc2[nH]c(C(=O)N3CCN(c4ncccc4NC(C)C)CC3)cc2c1,-,-,nucleotide incorporation,<100 µM
CCN1c2ncc(CCOc3ccc(C(=O)O)c4c3CCC4)cc2C(=O)N(C)c2cccnc21,RT-V106A,-,nucleotide incorporation / radiometric,0.1–1 µM
CC(C)OC(=O)CNC(=O)c1ccc(NC(=O)CSc2nnc(Br)n2-c2ccc(C3CC3)c3ccccc23)c(Cl)c1,-,-,nucleotide incorporation / radiometric,<0.05 µM
CCN1c2ncc(CCOc3ccc(/C=C(\C)C(=O)O)c4ccccc34)cc2C(=O)N(C)c2ccc(F)nc21,-,WT,nucleotide incorporation / radiometric,<0.1 µM
Cc1ccc(-n2c(SCC(=O)Nc3ccc(S(=O)(=O)NCCN4CCOCC4)cc3Cl)nnc2C(F)F)c2c1CCCC2,-,-,nucleotide incorporation / radiometric,<0.05 µM
CN(O)C(=O)COC(C)(C)C#Cc1ccc(NC(=O)CSc2nnnn2-c2ccc(C(C)(C)C)cc2Cl)c(Cl)c1,RT-K103 Y181C,-,PicoGreen / fluorescence,<1 µM
Cc1ccc(-n2c(SCC(=O)Nc3ccc(S(=O)(=O)NC(C(=O)O)C(C)C)cc3Cl)nnc2C(F)F)c2c1CCCC2,RT-Y181C,-,nucleotide incorporation / radiometric,>0.1 µM
CC(C)(C)c1ccc(-n2nnnc2SCC(=O)Nc2ccc(OCC(=O)NCCc3ccc(O)cc3)cc2Cl)c(Cl)c1,-,WT,PicoGreen / fluorescence,<1 µM
CCN1c2ncc(CCOc3ccc(-c4cccc(C(=O)O)c4)cc3C)cc2C(=O)N(C)c2cccnc21,RT-K103N Y181C,IIIB,nucleotide incorporation / radiometric,<0.05 µM
CCc1ccc(-n2c(Br)nnc2SCC(=O)Nc2ccc(C(=O)NCC(C)(C)N)cc2Cl)c2ccccc12,RT-Y188L,-,nucleotide incorporation / radiometric,0.05–0.1 µM
CCOc1ccccc1N1CCN(C(=O)c2cc3cc(OC)ccc3[nH]2)CC1,-,-,nucleotide incorporation,<100 µM
CCN1c2ncc(CCOc3ccc(CC(C)C(=O)O)c4ccccc34)cc2C(=O)N(C)c2ccc(C)nc21,RT-V106A,-,nucleotide incorporation / radiometric,>1 µM
O=C(CSc1nnc(Br)n1-c1ccc(C2CC2)cc1Cl)Nc1ccc(C(=O)O)cc1Cl,RT-Y188L,-,nucleotide incorporation / radiometric,>0.1 µM
CC(C)(C)c1ccc(-n2nnnc2SCC(=O)Nc2ccc(C(=O)NC(CO)C(=O)O)cc2Cl)c(Cl)c1,RT-K103 Y181C,-,PicoGreen / fluorescence,<1 µM
CCc1cc(C2CC2)ccc1-n1c(Br)nnc1SCC(=O)Nc1ccc(C(=O)O)cc1Cl,RT-Y181C,-,nucleotide incorporation / radiometric,0.05–0.1 µM
CCNc1cccnc1N1CCN(Cc2cc3ccccc3[nH]2)CC1,-,-,nucleotide incorporation,<100 µM
Cc1nnc2c3ccccc3c(N3CCc4ccc(N)cc4C3)nn12,-,98US_MSC5016,RT activity / fluorescence,8.28 µM
CC(C)(C)c1ccc(-n2nnnc2SCC(=O)Nc2ccc(NC(=O)c3ccc(C(=O)O)cc3)cc2Cl)c(Cl)c1,RT-K103 Y181C,-,PicoGreen / fluorescence,<1 µM
CCN1c2ncc(CCOc3ccc(NC(=O)/C=C/C(=O)O)cc3C)cc2C(=O)N(C)c2cccnc21,RT-K103N Y181C,IIIB,nucleotide incorporation / radiometric,0.05–0.1 µM
Cc1ccc(-c2cn[nH]c2OCC(=O)Nc2ccc(-c3ccc(CC(=O)O)cc3)cc2Cl)c(Cl)c1,-,WT,PicoGreen / fluorescence,<1 µM
CC(C)Nc1cccnc1N1CCN(C(=O)c2nc3ccccc3[nH]2)CC1,-,-,nucleotide incorporation,<100 µM
CCN1c2ncc(CCOc3ccc(CCC(=O)O)c4ccccc34)cc2C(=O)N(C)c2ccc(F)nc21,RT-V106A,-,nucleotide incorporation / radiometric,>1 µM
CC(C)(C)c1ccc(-n2nnnc2SCC(=O)Nc2ccc(NC(=O)Nc3ccc(C(=O)O)cc3)cc2Cl)c(Cl)c1,-,WT,PicoGreen / fluorescence,<1 µM
N#Cc1cccc2c(-n3c(SCC(=O)Nc4ccc(S(N)(=O)=O)cc4Cl)nnc3C(F)F)cccc12,RT-Y181C,-,nucleotide incorporation / radiometric,>0.1 µM
CC(C)(C)c1ccc(-n2nnnc2SCC(=O)Nc2ccc(NC(=O)Cc3cccc[n+]3[O-])cc2Cl)c(Cl)c1,RT-K103 Y181C,-,PicoGreen / fluorescence,<1 µM
CC(Sc1nnc(Br)n1-c1ccc(C2CC2)c2ccccc12)C(=O)Nc1ccc(S(N)(=O)=O)cc1Cl,RT-Y188L,-,nucleotide incorporation / radiometric,>0.1 µM
CCc1cc(CCc2nc3ccccc3o2)c(=O)[nH]c1C,RT-Y181S,-,nucleotide incorporation,5.967 µM
CCc1ccc(-n2c(Br)nnc2SCC(=O)Nc2ccc(C(=O)O)cc2C)c2ccccc12,-,-,nucleotide incorporation / radiometric,<0.05 µM
Cc1nnc2c3ccccc3c(N3CCc4ccc(C(=O)O)cc4C3)nn12,-,KER2008,RT activity / fluorescence,16.1 µM
Cc1nnc(SCC(=O)Nc2ccc(-c3ccc(OCCN4CCCCC4)cc3)cc2Cl)n1-c1ccc(C2CC2)cc1Cl,RT-K103 Y181C,-,PicoGreen / fluorescence,<1 µM
Cc1nnc2c3ccccc3c(N3CCc4cc(O)c(O)cc4C3)nn12,-,IIIB,RT activity / fluorescence,1.71 µM
O=C(O)Cc1ccc(-c2ccc(NC(=O)CSc3nnnn3-c3cc4c(cc3Cl)CCC4)c(Cl)c2)cc1,-,WT,PicoGreen / fluorescence,<1 µM
CCc1ccc(-n2c(I)nnc2SCC(=O)Nc2ccc(S(N)(=O)=O)cc2Cl)c2ccccc12,-,-,nucleotide incorporation / radiometric,<0.05 µM
CN(C)CCCC(=O)NC(C)(C)C#Cc1ccc(NC(=O)CSc2nnnn2-c2ccc(C3CC3)cc2Cl)c(Cl)c1,RT-K103 Y181C,-,PicoGreen / fluorescence,<1 µM
CNS(=O)(=O)c1ccc(NC(=O)CSc2nnc(C(F)F)n2-c2ccc(C)c3c2CCCC3)c(Cl)c1,RT-Y188L,-,nucleotide incorporation / radiometric,>0.1 µM
CN(C)c1ccc2c(c1)CN(c1nn3c(C4CC4)nnc3c3ccccc13)CC2,-,KER2008,RT activity / fluorescence,0.24 µM
C=C1c2cc(CCOc3ccc(NS(C)(=O)=O)c4ccccc34)cnc2N(CC)c2ncccc2N1C,RT-V106A,-,nucleotide incorporation / radiometric,>1 µM
COc1ccc2c(c1)CN(c1nn3c(C(C)C)nnc3c3ccccc13)CC2,-,98US_MSC5016,RT activity / fluorescence,0.28 µM
O=C(O)Cc1ccc(-c2ccc(NC(=O)CSc3nnnn3-c3ccc4ccccc4c3Cl)c(Cl)c2)cc1,RT-K103 Y181C,-,PicoGreen / fluorescence,<1 µM
NS(=O)(=O)c1ccc(NC(=O)CSc2nnc(Br)n2-c2ccc(F)c3ccccc23)c(Cl)c1,RT-Y181C,-,nucleotide incorporation / radiometric,<0.05 µM
CC(C)(C#Cc1ccc(NC(=O)CSc2nnnn2-c2cc(C3CC3)ccc2Cl)c(Cl)c1)NC(=O)c1cc[n+]([O-])cc1,RT-K103 Y181C,-,PicoGreen / fluorescence,<1 µM
CCN1c2ncc(CCOc3ccc(-c4cc(C(=O)O)c(C)o4)cc3)cc2C(=O)N(C)c2cccnc21,RT-K103N Y181C,IIIB,nucleotide incorporation / radiometric,>0.1 µM
CC(C)(C#Cc1ccc(NC(=O)CSc2nnnn2-c2ccc(C(C)(C)C)cc2Cl)c(Cl)c1)OCC(=O)Nc1cccc(C(=O)O)c1,-,WT,PicoGreen / fluorescence,<1 µM
CCOC(=O)N1CCC(NC(=O)c2ccc(NC(=O)CSc3nnc(Br)n3-c3ccc(CC)c4ccccc34)c(Cl)c2)CC1,-,-,nucleotide incorporation / radiometric,<0.05 µM
CCN1c2ncc(CCOc3ccc(C(C)C(=O)O)c4ccccc34)cc2C(=O)N(C)c2cccnc21,-,WT,nucleotide incorporation / radiometric,<0.1 µM
Cc1cc(S(N)(=O)=O)ccc1NC(=O)CSc1nnc(C)n1-c1ccc(C)c2c1CCCC2,-,-,nucleotide incorporation / radiometric,<0.05 µM
CC(C)(C)c1ccc(-n2nnnc2SCC(=O)Nc2ccc(NC(=O)c3ccccc3O)cc2Cl)c(Cl)c1,RT-K103 Y181C,-,PicoGreen / fluorescence,<1 µM
CCN1c2ncc(CCOc3ccc(CC(=O)O)c4ccccc34)cc2C(=O)Nc2c(C)cc(F)nc21,RT-K103N Y181C,-,nucleotide incorporation / radiometric,0.1–1 µM
C=CC#Cc1ccc(NC(=O)CSc2nnnn2-c2ccc(C3CC3)cc2Cl)c(Cl)c1,-,WT,PicoGreen / fluorescence,<1 µM
CNS(=O)(=O)c1ccc(NC(=O)CSc2nnc(C(F)F)n2-c2ccc(C)c3ccccc23)c(Cl)c1,RT-Y181C,-,nucleotide incorporation / radiometric,<0.05 µM
CC(C)(C)c1ccc(-n2nnnc2SCC(=O)Nc2ccc(C(=O)Nc3ccccc3O)cc2Cl)c(Cl)c1,-,WT,PicoGreen / fluorescence,<1 µM
CCc1ccc(-n2c(Br)nnc2SCC(=O)Nc2ccc(C(=O)N3CCC(O)CC3)cc2Cl)c2ccccc12,-,-,nucleotide incorporation / radiometric,<0.05 µM
Cc1cc(C#CC(C)(C)NC(=O)c2cc[n+]([O-])cc2)ccc1NC(=O)CSc1nnnn1-c1ccc(C2CC2)cc1Cl,-,WT,PicoGreen / fluorescence,<1 µM
FC(F)(F)Cc1nnc2c3ccccc3c(N3CCc4ccccc4C3)nn12,-,98US_MSC5016,RT activity / fluorescence,0.9 µM
Cc1ccc(-n2c(SCC(=O)Nc3ccc(C(=O)O)cc3Cl)nnc2C(F)F)c2c1CCCC2,RT-Y181C,-,nucleotide incorporation / radiometric,<0.05 µM

A second listing of 3 rows from above:

structure,mutations,strain or isolate,read by,value
CC(C)Nc1cccnc1N1CCN(C(=O)c2nc3ccccc3[nH]2)CC1,-,-,nucleotide incorporation,<100 µM
CC(C)(C)c1ccc(-n2nnnc2SCC(=O)Nc2ccc(NC(=O)c3ccccc3O)cc2Cl)c(Cl)c1,RT-K103 Y181C,-,PicoGreen / fluorescence,<1 µM
Cc1nnc2c3ccccc3c(N3CCc4ccc(N)cc4C3)nn12,-,98US_MSC5016,RT activity / fluorescence,8.28 µM